Source: patent US6001818A, “Use of 2',3'-dideoxycytidin-2'-ene (2'- ,3'-dideoxy-2'3'-didehydrocytidine) in treating patients infected with retroviruses” (Yale University, priority 1991, dated 1999)

Test system: human immunodeficiency virus (HIV or HTLV-III/LAV)
Assay: Reverse transcriptase assay, HIV-infected mitogen stimulated human peripheral blood mononuclear cells
Details: for % Inhibition (reverse transcriptase assay): day 5 after infection

| Structure (SMILES) | % Inhibition (reverse transcriptase assay) (0.001 μM) [%] | % Inhibition (reverse transcriptase assay) (0.01 μM) [%] | % Inhibition (reverse transcriptase assay) (0.1 μM) [%] | % Inhibition (reverse transcriptase assay) (1.0 μM) [%] | inhibitory activity (reverse transcriptase assay) (conclusion from Table 3 data) |
| --- | --- | --- | --- | --- | --- |
| Nc1ccn([C@H]2C=C[C@@H](CO)O2)c(=O)n1 [2',3'-dideoxycytidin-2'-ene] | 29 | 61 | 66 | 92 | confirm the inhibitory activity |
| Nc1ccn([C@H]2CC[C@@H](CO)O2)c(=O)n1 [2',3'-dideoxycytidine, reference compound] | 5.7 | 37 | 95 | 93 | – |
